Assay results published in PubChem BioAssay AID504621 (Broad Institute, 2011).
The entries are a selection whose mix differs from that of the whole data set. Calls of active or inactive are those of the source.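 How the source made its calls: active means every replicate shows inhibition above about 80%, whatever the replicate mean (limit read from the data); inconclusive means mean inhibition reaches the set limit but some replicate falls short; inactive means the rest.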

Assay: reduced ATP signal of yeast carrying P. falciparum Hsp90 – S. cerevisiae, BacTiter-Glo luminescence, single point, set 2, antimalarial PfHsp90 inhibitor project, primary screen (AID 504621);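 further: yeast relying on Plasmodium falciparum Hsp90 in place of its own; 0% = DMSO neutral controls and 100% = 20 µM radicicol positive controls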
Conditions: S. cerevisiae expressing PfHsp90, growth, 48 h, at 9.4 µM, active compounds read high, yeast lacking PDR1 and PDR3 efflux regulators

Structure (SMILES)	inhibition
COc1ccc(C(=O)NCC2(N3CCOCC3)CCCCC2)cc1OC	inactive: 30.6%
COc1cc(C(=O)NCC2(N3CCOCC3)CCCCC2)cc(OC)c1C	inactive: -33%
O=C(NCC1(N2CCOCC2)CCCCC1)c1cc(Br)ccc1Cl	inactive: -4.02%
O=C(OC1CN2CCC1CC2)C1c2ccccc2C=Cc2ccccc21 (stereo not drawn)	inactive: 3.03%
CCOC(=O)N1CCC(Nc2ccc(C)cc2)CC1	inactive: -11.6%
N/C(=N\O)c1c(N)no[n+]1[O-]	inactive: -65.5%
N#Cc1ccc(C(=O)NCC2(N3CCCCC3)CCCCC2)cc1	inactive: 17.9%
CC(C)(C)OC(=O)N1CCC(N(C(=O)c2ccccc2)c2ccc(Cl)cc2)CC1	inactive: -8.66%
CN(C)C1(CNC(=O)c2cccc(C#N)c2)CCCCC1	inactive: -1.28%
c1ccc(CN2CCC(Nc3ccccc3)CC2)cc1	inactive: -5.69%
CCCN1CCC(Nc2cc(OC)cc(OC)c2)CC1	inactive: -20.2%
Cc1cc(N(CCCl)CCCl)ccc1C=O	inactive: 10.3%
Fc1ccccc1NC1CCN(Cc2ccccc2)CC1	inactive: -6.45%
Cc1ccc(NC2(C#N)CCN(Cc3ccccc3)CC2)cc1	inactive: 10.8%
COc1cc(OC)cc(C(=O)NCC2(N3CCCCC3)CCCCC2)c1	inactive: 6.93%
O=C(NCC1(N2CCCCC2)CCCCC1)c1ccco1	inactive: -5.91%
Cn1c(=O)[nH]cc(N(CCCl)CCCl)c1=O	inactive: -5.12%
Cc1ccccc1NC1(C#N)CCN(Cc2ccccc2)CC1	inactive: 16.9%
CCN1CCC(Nc2cccc(F)c2)CC1	inactive: -4.22%
CC(C)(C)OC(=O)N1CCC(Nc2ccccc2)CC1	inactive: 17.5%
O=C(O)C1(Nc2ccccc2)CCN(Cc2ccccc2)CC1	inactive: 32.1%
CCCOc1ccc(C(=O)NCC2(N(C)C)CCCCC2)cc1	inactive: -5.63%
CCOc1ncccc1C(=O)NCC1(N2CCOCC2)CCCCC1	inactive: 11.2%

Structure (SMILES)	inhibition
CN1CCC(Nc2ccc(F)c(Cl)c2)CC1	inactive: -5.66%
CN1CCC(Nc2ccc(Cl)cc2)CC1	inactive: -8.48%
COc1cc(OC)cc(C(=O)NCC2(N3CCOCC3)CCCCC2)c1	inactive: 2.67%
COc1cccc(C(=O)N(c2cc(C)cc(C)c2)C2CCN(C(=O)OC(C)(C)C)CC2)c1	inactive: -3.84%
CCC(CO)(C(=O)OC1CN2CCC1CC2)c1ccccc1 (stereo not drawn)	inactive: 0.251%
CSc1ccccc1C(=O)NCC1(N2CCCCC2)CCCCC1	inactive: -24.9%
Cc1cccc(NC2(C#N)CCN(Cc3ccccc3)CC2)c1	inactive: -8.21%
COc1ccc(C(=O)NCC2(N3CCCCC3)CCCCC2)cc1	inactive: 2.8%
COc1ccc(C(=O)NCC2(N3CCCCC3)CCCCC2)c(OC)c1OC	inactive: 9.48%
CC(C)(C)OC(=O)N1CCC(N(C(=O)c2ccccc2)c2ccc(F)cc2)CC1	inactive: -4.83%
O=C(NCC1(N2CCCCC2)CCCCC1)c1ccc(=O)[nH]c1	inactive: 10.3%
O=C(NCC1(N2CCCCC2)CCCCC1)c1ccc(Cl)s1	inactive: 22.1%
N#CC1(Nc2ccccc2)CCN(Cc2ccccc2)CC1	inactive: -13.7%
O=C(OC1CN2CCC1CC2)C1c2ccccc2Oc2ccccc21 (stereo not drawn)	inactive: -10.7%
COc1ccc(Cl)cc1C(=O)NCC1(N2CCOCC2)CCCCC1	inactive: -5.83%
CCOC(=O)N1CCC(Nc2ccc(OC)cc2)CC1	inactive: -12.1%
Cc1cc(C)cc(N(C(=O)c2ccccc2)C2CCN(C(=O)OC(C)(C)C)CC2)c1	inactive: -14.8%
O=C(NCC1(N2CCOCC2)CCCCC1)c1cc2ccccc2o1	inactive: 0.723%
O=P1(N(CCCl)CCCl)SCCCS1	inactive: 13.3%
CCCCOc1ccc(C(=O)NCC2(N3CCOCC3)CCCCC2)cc1	inactive: 11.6%
O=C(NCC1(N2CCCCC2)CCCCC1)c1ccc(F)cc1	inactive: 19%
COc1ccc(NC2CCN(CCc3ccccc3)CC2)c(OC)c1	inactive: 20.5%
CCOC(=O)N1CCC(Nc2ccc(F)cc2)CC1	inactive: -15.4%

Structure (SMILES)	inhibition
O=C1CCN(Cc2ccccc2)CC1	inactive: 9.03%
CCOc1ccc(C)cc1CN(CCCl)CCCl	inactive: 11.6%
CCOC(=O)N1CCC(Nc2cccc(C)c2)CC1	inactive: -9.1%
COc1cc(C(=O)NCC2(N(C)C)CCCCC2)ccc1OC(F)F	inactive: -11%
CCN1CCC(Nc2ccc(Cl)cc2)CC1	inactive: 7.11%
N#CC1(Nc2ccccc2)CCN(CCc2ccccc2)CC1	inactive: 6.84%
O=C(NCC1(N2CCCCC2)CCCCC1)c1cccc([N+](=O)[O-])c1	inactive: 3.6%
CSc1ccc(C(=O)NCC2(N3CCOCC3)CCCCC2)cc1	inactive: 4.26%
O=C(NCC1(N2CCCCC2)CCCCC1)c1ccc(OC(F)F)cc1	inactive: 5.45%
COc1cc(C(=O)NCC2(N3CCCCC3)CCCCC2)ccc1OC(F)F	inactive: -43.6%
CN1CCN(CCOC(=O)C(O)(c2ccccc2)c2ccccc2)CC1	inactive: 3.56%
COc1ccc(NC2CCN(C(=O)OC(C)(C)C)CC2)cc1	inactive: -41.1%
CC(C)c1ccc(C(=O)NCC2(N3CCOCC3)CCCCC2)cc1	inactive: 7.41%
O=C(NCC1(N2CCCCC2)CCCCC1)c1cccc(C(F)(F)F)c1	inactive: 20.7%
COc1cc(OC)c(C(=O)NCC2(N(C)C)CCCCC2)cc1OC	inactive: -0.271%
O=C(NCC1(N2CCOCC2)CCCCC1)c1cc(F)c(F)cc1Cl	inactive: 5.23%
CC(C)c1ccc(NC2CCN(C(=O)OC(C)(C)C)CC2)cc1	inactive: -74.9%
COc1ccc(CN(CCCl)CCCl)cc1Cl	inactive: 5.95%
CN(C)c1cccc(C(=O)NCC2(N3CCCCC3)CCCCC2)c1	inactive: -23.5%
CCCOc1ccc(C(=O)NCC2(N(C)C)CCCCC2)cc1OC	inactive: 3.37%
CN1CCC(Nc2cccc(F)c2)CC1	inactive: -25.7%
O=C(NCC1(N2CCCCC2)CCCCC1)c1cncc(Br)c1	inactive: -10.7%
